Values from PubChem BioAssay AID624099 (ICCB-Longwood, 2012).
The deposit covers about 21,000 reagents; below is an unselected part. 497 of them (2.4%) were called active. 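Higher z means weaker E2 silencing; only reporter increases were scored, and knock-downs that hurt cell survival may mask genuine repressor factors.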 A number with no mark means an inactive call.

Aim: 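Knock-downs relieving repression by E2 of an HPV18 LCR luciferase reporter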 (primary screen)
System: human C33A cervical carcinoma cells (HPV-negative) stably expressing BPV1 E2 and an HPV18 LCR luciferase reporter
Reagents: siRNA pool against human genes, 40 nM
Time to read-out: 72 h
Read-out: 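Per-well luciferase luminescence, z-scored on each plate against the plate mean and SD with control wells left out, then averaged across three replicate plates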
Reading the numbers: mean z-score and z-score: higher = stronger reporter signal, weaker E2 silencing
Rule for the call: 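Hit if mean z-score reaches 2 and two or more of three replicate z-scores also reach 2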

| target | mean z-score | z-score, replicate A | z-score, replicate B | z-score, replicate C |
| --- | --- | --- | --- | --- |
| PER3 | 0.61 | 0.93 | 0.61 | 0.3 |
| DLG5 | 0.69 | 0.85 | 0.55 | 0.66 |
| PMS2P1 | 1.43 | 1.99 | 1.23 | 1.08 |
| NRCAM | 1.24 | 1.49 | 1.22 | 1 |
| PDGFB | -0.63 | -0.71 | -0.56 | -0.64 |
| CHID1 | -0.76 | -1 | -0.77 | -0.51 |
| PRR19 | 0.78 | 0.82 | 0.7 | 0.81 |
| ADGRA2 | 0.97 | 1.1 | 1.03 | 0.77 |
| LOC390880 (retired record) | 0.66 | 0.51 | 0.72 | 0.75 |

Quoted from the listing for reference:
| target | mean z-score | z-score, replicate A | z-score, replicate B | z-score, replicate C |
| --- | --- | --- | --- | --- |
| CHID1 | -0.76 | -1 | -0.77 | -0.51 |
| PRR19 | 0.78 | 0.82 | 0.7 | 0.81 |

Continued:
| target | mean z-score | z-score, replicate A | z-score, replicate B | z-score, replicate C |
| --- | --- | --- | --- | --- |
| HPGD | 0.59 | 0.48 | 0.49 | 0.79 |
| AXDND1 | -1.08 | -1.27 | -1.03 | -0.95 |
| ARHGAP9 | -1.34 | -1.32 | -1.23 | -1.46 |
| EIF2AK1 | -0.27 | 0.07 | -0.38 | -0.51 |
| FOXP3 | -0.26 | -0.13 | -0.38 | -0.28 |
| LOC400201 (retired record) | -0.56 | -0.57 | -0.99 | -0.1 |
| HNF1A | 0.41 | 0.37 | 0.27 | 0.59 |
| TRPV1 | -0.28 | -0.29 | -0.47 | -0.07 |
| BCL2L14 | 0.51 | 0.54 | 0.42 | 0.57 |
| AKR1C4 | -0.27 | -0.12 | 0.11 | -0.8 |
| USP3 | 0 | -0.23 | 0.22 | 0.02 |
| GNMT | -0.05 | -0.04 | 0.02 | -0.14 |
| YTHDC2 | -0.12 | -0.38 | -0.08 | 0.09 |
| SCAPER | 1.8 | 2.29 | 1.71 | 1.4 |
